Data on one compound can be found in US20240131007A1, “METHODS AND COMPOSITIONS FOR PICORNAVIRUS ANTI-VIRAL AGENTS” (University of Connecticut, priority 2022, published 2024).

One data set relates to EV-71. As to the kind of experiment: NIAID Antiviral Program for Pandemics primary assay (CPE/Tox), EV-71. Particulars: CC50/EC50.
Another data set deals with EV-68. As to the kind of experiment: NIAID Antiviral Program for Pandemics primary assay (CPE/Tox), EV-68. To be noted: CC50/EC50.

As for `Cc1ccc2[nH]c(-c3ccc(NC(=O)c4cccs4)cc3)nc2c1` [Compound 36, N-[4-(5-methyl-1H-benzimidazol-2-yl)phenyl]-2-thiophenecarboxamide], the SI50 in the data set with EV-71 (Neutral Red (CPE/Tox)) is reported as 8.9; in the data set on EV-71 (Visual (CPE/Tox)), 0; in the data set on EV-68 (Neutral Red (CPE/Tox)) it was 23; in the data set with EV-68 (Visual (CPE/Tox)), 46.
